Assay results reported in PubChem BioAssay AID898 (University of Pittsburgh Molecular Library Screening Center, 2007).
The entries are a selection whose mix differs from that of the whole data set. Calls of active or inactive are those of the source. Rule as the data show it: active = inhibition above about 50%; inactive = the rest.

System: YopH tyrosine phosphatase [Yersinia enterocolitica]
Assay: YopH tyrosine phosphatase inhibitors, primary screen, biochemical, fluorescence Ex485/Em525 (AID 898)
Conditions: active compounds read high, concentration not given here

| SMILES | inhibition |
| --- | --- |
| CN(C)C(=O)OCCc1n(C)cc[n+]1C | inactive: -32.8% |
| CC(C)C(=O)NC(Sc1ccccc1)C(Cl)(Cl)Cl (stereo not given) | inactive: -38.2% |
| O=P(Nc1nccs1)(c1ccccc1)c1ccccc1 | inactive: 13.7% |
| c1nnnn1CCn1cnnn1 | inactive: -26% |
| CCOP(C)(=S)SCC(=O)NC(C)(CC)C(=O)O (stereo not given) | inactive: -27.8% |
| CP(=O)(Nc1ccc2c(c1)OCCO2)Oc1ccccc1 (stereo not given) | inactive: -3.46% |
| Cc1ccccc1NP(C)(=O)Nc1ccccc1C | inactive: -50% |
| COc1ccc(OP(C)(=O)Nc2cccc(Br)c2)cc1 (stereo not given) | inactive: -27.9% |
| CN(C)CCOC(=O)C(O)(c1ccccc1)C1CCCCC1 (stereo not given) | inactive: -6.6% |
| CC(=O)NC(SC(=S)N(C)C)C(Cl)(Cl)Cl (stereo not given) | inactive: -23.4% |
| O=C(OC1CN2CCC1CC2)c1cccc(Cl)c1 (stereo not given) | inactive: -32.3% |
| C(Cc1nn[nH]n1)Cc1nn[nH]n1 | inactive: -27.6% |
| CCOC(=O)NC(Sc1ccccc1)C(Cl)(Cl)Cl (stereo not given) | inactive: 8.08% |
| CCOC(=O)c1ccc(NP(C)(=O)Oc2ccc(F)cc2)cc1 (stereo not given) | inactive: -25.8% |
| CCN(CC)CCCOC(=O)C(O)(c1ccccc1)C1CCCCC1 (stereo not given) | inactive: -0.26% |
| CCC(=O)N1C2C3N(C(=O)CC)C1C1N(C(=O)CC)C(C(N1C(=O)CC)N3C(=O)CC)N2C(=O)CC | inactive: 7.44% |
| CC(=O)NC(SC(=S)N(CC(C)C)CC(C)C)C(Cl)(Cl)Cl (stereo not given) | inactive: -14.9% |
| COC(=O)c1cc2c(s1)N=C(c1ccccc1)N(C)P2(=O)N1CCOCC1 (stereo not given) | inactive: -30.4% |
| CP(=O)(Nc1ccccc1)Oc1ccc(F)cc1 (stereo not given) | inactive: -13.2% |
| O=P1(Nc2nc3ccc(Cl)cc3s2)COc2ccccc2O1 (stereo not given) | inactive: -36.5% |
| CC(C)c1ccc(OP(C)(=O)Nc2ccc(SC(F)(F)F)cc2)cc1 (stereo not given) | inactive: -16.1% |
| CP(=O)(Nc1ccccc1F)Oc1ccccc1 (stereo not given) | inactive: -45.8% |
| O=C(OCCN1CCN(CCOCc2ccccc2)CC1)C(O)(c1ccccc1)c1ccccc1 | inactive: -24.4% |
| Cc1cc(C)cc(OP(C)(=O)Nc2ccc(C)cc2C)c1 (stereo not given) | inactive: -6.44% |

| SMILES | inhibition |
| --- | --- |
| Cc1cccc(OCC(=O)OC2CN3CCC2CC3)c1 (stereo not given) | inactive: -5.53% |
| CCOC(=O)c1ccc(NP(C)(=O)Oc2cc(C)cc(C)c2)cc1 (stereo not given) | inactive: -17.9% |
| Cc1ccc(NCCc2c([N+](=O)[O-])cc([N+](=O)[O-])cc2[N+](=O)[O-])cc1 | inactive: -22.6% |
| Cc1cc(C)cc(OP(C)(=O)Nc2ccccn2)c1 (stereo not given) | inactive: -33.3% |
| Cc1ccc(C)c(NP(C)(=O)Oc2ccccc2)c1 (stereo not given) | inactive: -18.5% |
| CCOP(=O)(Nc1cccc2ccccc12)OCC | inactive: -23.5% |
| O=P(Nc1nccs1)(c1ccccc1)c1nc2ccccc2s1 (stereo not given) | inactive: -30.2% |
| CCOP1(=S)c2c(C)nn(CCC#N)c2N=C(c2ccccc2F)N1C (stereo not given) | inactive: 6.92% |
| CCOP1(=S)c2c(C)nn(CCC#N)c2N=C(c2ccc(F)cc2)N1C (stereo not given) | inactive: 3.69% |
| CC1=NCCc2c1[nH]c1ccccc21.O=[N+]([O-])c1cc([N+](=O)[O-])c(O)c([N+](=O)[O-])c1 | inactive: -24.1% |
| O=[N+]([O-])c1ccc2c(c1)nnn2O | inactive: -33.3% |
| Cc1nn(-c2ccccc2)c2c1P(=O)(N1CCOCC1)N(C)C(c1ccccc1)=N2 (stereo not given) | inactive: -55.2% |
| COc1cc(C2NCCC3(OCCO3)C2(C)C)cc(OC)c1OC.O=[N+]([O-])c1cc([N+](=O)[O-])c(O)c([N+](=O)[O-])c1 (stereo not given) | inactive: -5.17% |
| COc1ccccc1OP(C)(=O)Nc1c(C)cccc1C (stereo not given) | inactive: -0.13% |
| CN1CCCCC1COC(=O)C1(O)c2ccccc2CCc2ccccc21 (stereo not given) | inactive: -28.7% |
| O=P1(Nc2ncccn2)COc2ccccc2OC1 | inactive: -29.3% |
| CP(=O)(Nc1ccc(SC(F)(F)F)cc1)Oc1ccccc1 (stereo not given) | inactive: -11.6% |
| Cc1ccc(OCC(=O)OC2CN3CCC2CC3)cc1 (stereo not given) | inactive: -82.1% |
| O=P1(Nc2ccc(Br)cn2)COc2ccccc2OC1 | inactive: -47.4% |
| O=P1(Nc2ccccn2)COc2ccccc2OC1 | inactive: -11.8% |
| Clc1n[nH]nc1-c1nn[nH][15n]1 | inactive: -23.4% |
| CC1(CBr)Cn2c(nc3ccccc3c2=O)S1 (stereo not given) | inactive: -25.6% |
| Cc1nc2ccc3ccccc3c2s1.O=[N+]([O-])c1cc([N+](=O)[O-])c(O)c([N+](=O)[O-])c1 | inactive: -44.5% |
| COP1(=S)c2c(C)nn(CCC#N)c2N=C(c2ccc(F)cc2)N1C (stereo not given) | inactive: -34.7% |

| SMILES | inhibition |
| --- | --- |
| Cc1cccc(C)c1OP(C)(=O)Nc1ccc(SC(F)(F)F)cc1 (stereo not given) | inactive: -26.4% |
| Cc1cc(C)cc(OP(C)(=O)Nc2ccc(SC(F)(F)F)cc2)c1 (stereo not given) | inactive: 24.1% |
| O=C(COc1ccccc1)OC1CN2CCC1CC2 (stereo not given) | inactive: -43.5% |
| CP(=O)(NC(=O)Nc1ccccc1)Oc1ccccc1 (stereo not given) | inactive: -34.4% |
| CCOP(C)(=S)SCC(=O)NC(C)C(=O)O (stereo not given) | inactive: -6.92% |
| CCOC(=O)c1ccc(NP(C)(=O)Oc2ccc(OC)cc2)cc1 (stereo not given) | inactive: -36.6% |
| CCC(C)N(CC(C)C)C(=S)SC(NC(C)=O)C(Cl)(Cl)Cl (stereo not given) | inactive: -6.91% |
| CP(=O)(Nc1ccccn1)Oc1ccc(Cl)cc1 (stereo not given) | inactive: -20.4% |
| Cc1cc(SC(NC(=O)c2ccccc2)C(Cl)(Cl)Cl)nc(C(C)C)n1 (stereo not given) | inactive: -21.5% |
| CP(=S)(Nn1cnnc1)Oc1ccccc1 (stereo not given) | inactive: -3.86% |
| CP(=O)(Nc1ccccc1Br)Oc1ccccc1 (stereo not given) | inactive: -8.66% |
| CC(C)(C)c1ccc(OP(C)(=O)Nc2ccc(SC(F)(F)F)cc2)cc1 (stereo not given) | inactive: -12.8% |
| Cc1ccc2nc3c(c(C)c2c1)CC(C(Cl)Cl)S3 (stereo not given) | inactive: -31.7% |
| ClCCSc1nnc(-c2cccnc2)o1 | inactive: -110% |
| CCOC(=O)c1ccc(NP(C)(=O)Oc2ccccc2)cc1 (stereo not given) | inactive: -20.2% |
| Cc1ccc(NP(C)(=O)Oc2ccccc2)c(C)c1 (stereo not given) | inactive: -46.3% |
| COc1ccccc1OP(C)(=O)Nc1ccc(C)cc1 (stereo not given) | inactive: -17.6% |
| COc1ccc(OP(C)(=O)Nc2cccc(F)c2)cc1 (stereo not given) | inactive: -7.76% |
| O=[N+]([O-])c1cc([N+](=O)[O-])c(-c2ccn[nH]2)s1 | inactive: 0.15% |
| CCN(CC)C(=S)SC(NC=O)C(Cl)(Cl)Cl (stereo not given) | inactive: -24.5% |
| Cc1c2c(nc3ccccc13)SC(C(Cl)Cl)C2 (stereo not given) | inactive: -33.1% |
| O=C(OC1CN2CCC1CC2)C12CC3CC(CC(C3)C1)C2 (stereo not given) | inactive: 9.26% |
